Laboratory results: ChEMBL document CHEMBL1137564, “Substituted 2-pyrrolinone inhibitors of HIV-1 integrase” (Bioorg Med Chem Lett, 2007)

Target: Human immunodeficiency virus type 1 integrase (Human immunodeficiency virus 1) (UniProt Q7ZJM1)
Assay: Selectivity for HIV1 integrase strand transfer activity over 3'-end processing activity

**Q.** For O=C(C1=C(O)C(=O)N(c2nc3ccccc3s2)C1c1ccc2c(c1)OCO2)c1ccccc1 (stereo unspecified), which Ratio IC50 is on record?
**A.** The Ratio IC50 was 3.
